Compound potency records, mixed from different reports. Data source: NIAID ChemDB in PubChem.

Shared fields: tests in culture; organism: Mycobacterium tuberculosis

MIC bound comes from a single tested concentration. ECn: concentration that inhibits the pathogen or its effect by n%. Two numbers with a dash give a range or band. Inhibition is in % at the dose shown (toxicity tests: loss of growth or viability). Conditions beyond the fields shown may differ between rows. Blank or dashed fields: not listed here. A number after MIC or MFC names an inhibition level or a share of isolates.

smiles,method,dose,read-out,strain or isolate,conditions,result
Nc1ccc2c(N3CCOCC3)cc(N3CCOCC3)nc2n1,BACTEC,6.25 µg/mL,inhibition,H37Rv,,0%
O=c1oc2ccc(Cl)cc2c(=S)n1-c1ccc(C(F)(F)F)cc1,,,MIC,My 331/88,21 d,4 µM
O=C1c2ccc(Cl)cc2-n2c1nc1ccccc1c2=O,,,MIC,MDR 10038,,1 µg/mL
O=c1ccc2c(Cl)cc(N3CCOCC3)nc2[nH]1,BACTEC,6.25 µg/mL,inhibition,H37Rv,,2%
COC(=O)/C(=C1\OC(=O)C(c2ccccc2)=C1O)c1ccccc1,BACTEC,128 µg/mL,inhibition,H37Rv,,96%
Cc1ccc2oc(=O)n(-c3ccc(Cl)cc3)c(=S)c2c1,,,MIC,My 331/88,14 d,0.5 µM
Cc1ccc2c(Cl)c(Cc3ccccc3)c(Cl)nc2n1,BACTEC,6.25 µg/mL,inhibition,H37Rv,,55%
CC(C)(C)c1ccc2cccc([N+](=O)[O-])c2n1,,,MIC,H37Rv,,>6.25 µg/mL
CCCCCCCCC/C=N/Nc1ccc([N+](=O)[O-])cn1,BACTEC,12.5 µg/mL,inhibition,H37Rv,,97%
COc1ccc(-c2ccc(OCC(=O)OC(C)(C)C)cc2CN2CCN(c3cccc(C)n3)CC2)cc1,broth dilution,,MIC,H37Rv (ATCC 27294),,16 µg/mL
O=[N+]([O-])c1cccc2c(C3CCCC3)cc(C3CCCC3)nc12,,,MIC,Ethambutol-resistant,,25 µg/mL
CCOC(=O)Cc1cc(C2CCCCC2)nc2c(C3CCCCC3)cccc12,,,MIC,H37Rv,,6.25 µg/mL
C[C@H]1CN(c2c(F)cc3c(=O)c(C(=O)O)cn(C4CC4)c3c2OC(F)F)CCN1,,,MIC90,100 isolates,,1 µg/mL
NC[C@@H]1O[C@H](O[C@H]2[C@@H](O)[C@H](O[C@@H]3[C@@H](O)[C@H](N)C[C@H](N)[C@H]3O[C@H]3O[C@H](CO)[C@@H](O)C[C@H]3N)O[C@@H]2CO)[C@H](N)[C@@H](O)[C@@H]1O[C@H]1O[C@H](CO)[C@@H](O)[C@H](O)[C@@H]1O,,,EC50,Aoyama B (streptomycin-resistant),,25–50 µg/mL
O=C1c2cc(OC(F)(F)F)ccc2-n2c1nc1cc(F)ccc1c2=O,,,MIC,H37Rv,,0.03 µg/mL
O=C1OCC2=Nc3cccc4cccc(c34)N12,BACTEC,,MIC bound,H37Rv,,>12.5 µg/mL
CC(=O)c1cc([N+](=O)[O-])c2ncccc2c1C1CCCCC1,,6.25 µg/mL,inhibition,H37Rv,,12%
Nc1nc(-c2cccc([N+](=O)[O-])c2)c(N=Nc2cccc([N+](=O)[O-])c2)s1,BACTEC,6.25 µg/mL,inhibition,H37Rv,,0%
O=C1c2cc(F)ccc2-n2c1nc1nccnc1c2=O,,,MIC,H37Rv,,10 µg/mL
O=C1OC(c2ccccc2)=NC1=Cc1ccccc1F,BACTEC,,MIC bound,H37Rv,,≤12.5 µg/mL
S=c1oc2ccc(Br)cc2c(=S)n1-c1ccc(Br)cc1,,,MIC,My 331/88,14 d,1 µM
O=C(O)c1cn(C2CC2)c2c(F)c(N3CCSCC3)c(F)cc2c1=O,,,MIC,CSU27,,2 µg/mL
CCCCCCOc1c(C(C)=O)cc([N+](=O)[O-])c2nccc(CC)c12,,,MIC,H37Rv,,>6.25 µg/mL
Fc1ccc(OCCC(Cn2ccnc2)c2ccc(Cl)cc2Cl)cc1,resazurin,6.25 µg/mL,inhibition,H37Rv,,97%
O=C1c2cc(C(F)(F)F)ccc2-n2c1nc1ncccc1c2=O,,,MIC,H37Rv,,0.13 µg/mL
O=C1c2ccccc2-n2c1nc1ccc(Br)cc1c2=O,,,MIC,H37Rv,,1.3 µg/mL
CO[C@H]1/C=C/O[C@@]2(C)Oc3c(C)c(O)c4c(O)c(c(/C=N/N5CCN(Cc6ccccc6)CC5)c(O)c4c3C2=O)NC(=O)/C(C)=C\C=C\[C@H](C)[C@H](O)[C@@H](C)[C@@H](O)[C@@H](C)[C@H](OC(C)=O)[C@@H]1C,,,MIC,TAC-R,,0.01 µg/mL
CC(NC(=O)c1ccccc1Cl)c1nnc(SCc2ccc(F)cc2)n1Cc1cccnc1,broth dilution,,MIC,H37Rv (ATCC 27294),14 d,>64 µg/mL
CCOC(=O)c1ccc(-c2ccc[nH]2)nc1C,,,MIC,H37Rv,,25 µg/mL
CS(=O)(=O)c1ccc2c(c1)C(=O)c1nc3ccncc3c(=O)n1-2,,,MIC,H37Rv,,4 µg/mL
COc1cccc(NC(=O)/C(Cc2nc3ccccc3nc2C)=N/NC(=O)C[n+]2ccccc2)c1.[Cl-],BACTEC,,MIC bound,H37Rv,,>12.5 µg/mL
CO[C@H]1/C=C/O[C@@]2(C)Oc3c(C)c(O)c4c(O)c(c5c(c4c3C2=O)NC2(CCN(CC(C)C)CC2)N=5)=NC(=O)/C(C)=C\C=C\[C@H](C)[C@H](O)[C@@H](C)[C@@H](O)[C@@H](C)[C@H](OC(C)=O)[C@@H]1C,,,MIC,Erdman,,≤0.125 µg/mL
Cc1ccc2oc(=S)n(-c3ccccc3)c(=S)c2c1,,,MIC,My 331/88,14 d,0.5 µM
O=[N+]([O-])c1cccc2ccc(C3CCCC3)nc12,,,MIC,H37Rv,,>6.25 µg/mL
COc1ccc2cc(CN(C(=O)Nc3ccc(F)cc3)C3CCCCCC3)c(=O)[nH]c2c1,broth dilution,,MIC,H37Rv (ATCC 27294),14 d,>64 µg/mL
Clc1ccc(-n2cc(CSC3c4ccccc4-c4ccccc43)nn2)cc1Cl,broth dilution,,MIC99,Specimen 192,,>236 µM
COC(=O)c1ccc2c(C3CCCCC3)cccc2n1,,,MIC,H37Rv,,>6.25 µg/mL
Cc1cc(C)c2nc3n(c(=O)c2c1)-c1ccc(F)cc1C3=O,,,MIC,MDR 10038,,<0.3 µg/mL
FC(F)(F)c1ccc(-n2c(=S)oc3ccc(Br)cc3c2=S)cc1,,,MIC,My 331/88,21 d,4 µM
COC(=O)COc1ccc(-c2cccc(C#N)c2)c(CN2CCN(c3ccccn3)CC2)c1,broth dilution,,MIC,H37Rv (ATCC 27294),,32 µg/mL
CN(NC(=O)C(=O)NCc1ccco1)C(=O)NC1CCCCC1,BACTEC,12.5 µg/mL,inhibition,H37Rv,,0%
COC(=O)c1cc(C2CCCCC2)nc2c(C3CCCCC3)cccc12,,6.25 µg/mL,inhibition,H37Rv,,44%
CC1CN(c2c(F)cc3c(=O)c(C(=O)O)cn(C4CC4)c3c2F)CCN1,,,MIC,Erdman,,≤0.125 µg/mL
COc1ccc2c(c1)C(=O)c1nc3ccccc3c(=O)n1-2,,,MIC,MDR 10038,,1 µg/mL
O=C(O)c1ccc2ccccc2n1,,6.25 µg/mL,inhibition,H37Rv,,10%
CC1(C)CCc2nc(-c3ccc([N+](=O)[O-])cc3)ccc2C1=O,,,MIC,H37Rv,,>25 µg/mL
COc1ccc2c(C)cc(N/N=C/c3ccccn3)nc2c1,BACTEC,12.5 µg/mL,inhibition,H37Rv,,99%
O=C1c2cc(F)ccc2-n2c1nc1ccccc1c2=O,,,MIC,H37Rv,,0.13 µg/mL
CC1(C)SC(C)(C)N(C=O)C1C(=O)[O-].[Na+],BACTEC,12.5 µg/mL,inhibition,H37Rv,,0%
Cc1ccc2c(O)c(C)c(=O)[nH]c2n1,BACTEC,,EC50,H37Rv,,>6.25 µg/mL
COc1c(N2CCNC(C)C2)c(F)cc2c(=O)c(C(=O)O)cn(C3CC3)c12,,,MIC,Strain 474,,0.06 µg/mL
O=[N+]([O-])c1ccc(-n2cc(CSC3c4ccccc4-c4ccccc43)nn2)cc1,broth dilution,,MIC99,H37Rv,,>250 µM
CCOC(=O)c1ccc(-c2ccccc2)nc1C,,,MIC,H37Rv,,>25 µg/mL
CC(=O)Nc1cccc2ccc(C3CCCCC3)nc12,,6.25 µg/mL,inhibition,H37Rv,,1%
Clc1ccc(OCc2nnc3n2N=C(c2ccccc2)CS3)cc1,BACTEC,12.5 µg/mL,inhibition,H37Rv,,29%
COc1c(C(C)=O)cc([N+](=O)[O-])c2nc(C(C)C)ccc12,,,MIC,H37Rv,,>6.25 µg/mL
COc1ccc(-c2ccc(OCC(=O)OC(C)(C)C)cc2CN2CCN(c3ccccn3)CC2)cc1,broth dilution,,MIC,H37Rv (ATCC 27294),,16 µg/mL
CNC1CCCN(c2c(F)cc3c(=O)c(C(=O)O)cn(C4CC4)c3c2OC)C1,,,MIC90,100 isolates,,4 µg/mL
COC(=O)c1cc(C2CCCC2)nc2c(C3CCCC3)cccc12,,6.25 µg/mL,inhibition,H37Rv,,38%
O=C1c2ccccc2-n2c1nc1ccc([N+](=O)[O-])cc1c2=O,,,MIC,MDR 10038,,>10 µg/mL
Clc1ccc(-n2cc(CSC3c4ccccc4-c4ccccc43)nn2)c(Cl)c1,broth dilution,,MIC99,Specimen 192,,>236 µM
CC(c1nnc(SCCOc2ccc(F)cc2)n1Cc1ccc(F)cc1)N(C)C(=O)c1ccccc1C(F)(F)F,broth dilution,,MIC,H37Rv (ATCC 27294),7 d,>64 µg/mL
Cn1c(=O)c2c(nc(/N=C/c3ccc([N+](=O)[O-])cc3)n2C)n(C)c1=O,resazurin,6.25 µg/mL,inhibition,H37Rv,,-23%
COC(=O)c1cc(C2C3CC4CC(C3)CC2C4)c2ccccc2n1,,,MIC,H37Rv,,>6.25 µg/mL
CCCCCCCCOc1c(C(C)=O)cc(N)c2nccc(CC)c12,,,MIC,Isoniazid-resistant,,6.25 µg/mL
CC1CN(c2c(F)cc3c(=O)c(C(=O)O)cn(C4CC4)c3c2F)CC(C)N1,,,MIC,CSU15,,≤0.125 µg/mL
Cc1ccnc(NS(=O)(=O)c2ccc(N=Nc3c(N)nc(N)nc3N)cc2)n1,BACTEC,,MIC bound,H37Rv,,>12.5 µg/mL
CC(C)(C)c1cc(C(C)(C)C)c2cccc([N+](=O)[O-])c2n1,,6.25 µg/mL,inhibition,H37Rv,,23%
COc1ccc(-n2cc(CS(=O)(=O)C3c4ccccc4-c4ccccc43)nn2)cc1,broth dilution,,MIC99,H37Rv,,120 µM
COC(=O)COc1ccc(-c2cccc(OC)c2)c(CN2CCN(c3ccccn3)CC2)c1,broth dilution,,MIC,H37Rv (ATCC 27294),,8 µg/mL
CN1CCN(c2cc3c(cc2F)C(=O)c2nc4ccccc4c(=O)n2-3)CC1,,,MIC,H37Rv,,10 µg/mL
O=c1/c(=C\c2cccc([N+](=O)[O-])c2)sc2nc3ccccc3n12,resazurin,6.25 µg/mL,inhibition,H37Rv,,-4%
Cc1ccc2c(Cl)c(C)c(N3CCCCC3)nc2n1,BACTEC,,EC50,H37Rv,,>6.25 µg/mL
O=C1c2cc(I)ccc2-n2c1nc1ncccc1c2=O,,,MIC,TN1040RFLP:N (DRUG sensitive),,0.06 µg/mL
Cc1ccc(-n2cc(CNC3c4ccccc4-c4ccccc43)nn2)cc1C,broth dilution,,MIC99,H37Rv,,>273 µM
COc1ccc(C2Nc3cc(Cl)ccc3NC3=C2C(=O)CC(C)(C)C3)cc1,resazurin,6.25 µg/mL,inhibition,H37Rv,,70%
O=C1c2cc(OC(F)(F)F)ccc2-n2c1nc1ccccc1c2=O,,,MIC,H37Rv,,0.03 µg/mL
CC1(C)CC(=O)c2ccc(-c3ccc([N+](=O)[O-])cc3)nc2C1,,,MIC,H37Rv,,>25 µg/mL
Cc1ccc2oc(=S)n(-c3ccc(C(F)(F)F)cc3)c(=S)c2c1,,,MIC,My 331/88,14 d,4 µM
C=C1C(=O)OC2CC3(C)OC3C3OC3C3=CC(OC3=O)C12,BACTEC,,MIC,H37Rv,,≥12.8 µg/mL
O=C1c2cc(F)ccc2-n2c1nc1c(F)cccc1c2=O,,,MIC,H37Rv,,0.13 µg/mL
CCSC1=N/C(=C/c2ccco2)C(=O)N1,BACTEC,0.5 µM,inhibition,,,0%
C[C@H]1COc2c(N3CCN(C)CC3)c(F)cc3c(=O)c(C(=O)O)cn1c23,,,MIC,Strain 328,,0.25 µg/mL
CC(=O)C(CCCn1c(=O)c2c(ncn2C)n(C)c1=O)CCCn1c(=O)c2c(ncn2C)n(C)c1=O,BACTEC,,MIC bound,H37Rv,,>12.5 µg/mL
Cc1ccccc1OCCSc1nnc(C(C)NC(=O)c2ccccc2C(F)(F)F)n1C,broth dilution,,MIC,H37Rv (ATCC 27294),,>32 µg/mL
Cc1nn(C(=S)S)c(C)c1N=Nc1ccc(O)cc1,BACTEC,128 µg/mL,inhibition,H37Rv,,100%
Cc1ccc(-n2c(=O)oc3ccc(Br)cc3c2=S)cc1,,,MIC,My 331/88,14 d,0.5 µM

Again, the opening 10 rows:

| smiles | method | dose | read-out | strain or isolate | conditions | result |
|---|---|---|---|---|---|---|
| Nc1ccc2c(N3CCOCC3)cc(N3CCOCC3)nc2n1 | BACTEC | 6.25 µg/mL | inhibition | H37Rv |  | 0% |
| O=c1oc2ccc(Cl)cc2c(=S)n1-c1ccc(C(F)(F)F)cc1 |  |  | MIC | My 331/88 | 21 d | 4 µM |
| O=C1c2ccc(Cl)cc2-n2c1nc1ccccc1c2=O |  |  | MIC | MDR 10038 |  | 1 µg/mL |
| O=c1ccc2c(Cl)cc(N3CCOCC3)nc2[nH]1 | BACTEC | 6.25 µg/mL | inhibition | H37Rv |  | 2% |
| COC(=O)/C(=C1\OC(=O)C(c2ccccc2)=C1O)c1ccccc1 | BACTEC | 128 µg/mL | inhibition | H37Rv |  | 96% |
| Cc1ccc2oc(=O)n(-c3ccc(Cl)cc3)c(=S)c2c1 |  |  | MIC | My 331/88 | 14 d | 0.5 µM |
| Cc1ccc2c(Cl)c(Cc3ccccc3)c(Cl)nc2n1 | BACTEC | 6.25 µg/mL | inhibition | H37Rv |  | 55% |
| CC(C)(C)c1ccc2cccc([N+](=O)[O-])c2n1 |  |  | MIC | H37Rv |  | >6.25 µg/mL |
| CCCCCCCCC/C=N/Nc1ccc([N+](=O)[O-])cn1 | BACTEC | 12.5 µg/mL | inhibition | H37Rv |  | 97% |
| COc1ccc(-c2ccc(OCC(=O)OC(C)(C)C)cc2CN2CCN(c3cccc(C)n3)CC2)cc1 | broth dilution |  | MIC | H37Rv (ATCC 27294) |  | 16 µg/mL |